Anti-infective test results gathered from many reports (values: NIAID ChemDB through PubChem).

Shared fields: whole-cell or culture tests; organism: Candida albicans

Blank or dashed fields: not listed here. MIC50, MIC90 and the like: level of inhibition, or share of isolates inhibited. Lines come from different laboratories, so protocols vary. Inhibition is in % at the dose shown (toxicity tests: loss of growth or viability). ECn is the concentration giving n% inhibition of infection, replication or growth.

SMILES,read-out,strain or isolate,dose,conditions,method,result
CC(C)(O)c1cn(-c2ccc3ccccc3c2)nn1,inhibition,URM 4817,2048 µg/mL,,broth dilution,0%
Nc1[nH]c(=O)ncc1F,EC90,10 isolates,,pH 4,broth dilution,>64 µg/mL
CC(C)(O)c1cn(-c2cccc3ccccc23)nn1,inhibition,URM 4817,2048 µg/mL,,broth dilution,0%
C[C@@H](N1CCN(Cc2cn(Cc3ccc(Cl)cc3)c3ccccc23)CC1)[C@](O)(Cn1cncn1)c1ccc(F)cc1F,MIC80,ATCC 36082,,,resazurin,0.25 µg/mL
Cc1ccc(-c2c3c(N)c4c(nc3nc3c2c(C)nn3-c2ccccc2)CCCCC4)cc1,MIC50,ATCC 10231,,,broth dilution / absorbance,62.5 µg/mL
OC(CN1CCN(c2ccc(OCc3ccncc3)cc2)CC1)(Cn1cncn1)c1ccc(F)cc1F,MIC80,304356,,,,2 µg/mL
Cc1ccc(-c2c3c(N)c4c(nc3nc3c2c(C)nn3-c2ccccc2)CCC4)cc1,MIC80,CCC 129,,,broth dilution / absorbance,31.2 µg/mL
CC[C@@H]([C@H](C)O)n1ncn(-c2ccc(N3CCN(c4ccc(OC[C@@H]5CO[C@@](Cn6cncn6)(c6ccc(F)cc6F)C5)cc4)CC3)cc2)c1=O,EC90,10 isolates,,pH 4,broth dilution,16 µg/mL
CC(C)(O)c1cn(-c2ccc([N+](=O)[O-])cc2)nn1,inhibition,URM 4387,2048 µg/mL,,broth dilution,0%
Clc1ccc(COC(Cn2ccnc2)c2ccc(Cl)cc2Cl)c(Cl)c1,EC90,10 isolates,,pH 6,broth dilution,4 µg/mL
C[C@@H](N1CCN(Cc2cn(Cc3ccc(C(F)(F)F)cc3)c3cc(Cl)ccc23)CC1)[C@](O)(Cn1cncn1)c1ccc(F)cc1F,MIC80,ATCC 36082,,,resazurin,0.125 µg/mL
CCC(C)CC(C)CCCCCCCCC(=O)N[C@H]1C[C@@H](O)[C@H](NCCN)NC(=O)[C@@H]2[C@@H](O)CCN2C(=O)[C@H]([C@H](O)CCN)NC(=O)[C@H]([C@H](O)[C@@H](O)c2ccc(O)cc2)NC(=O)[C@@H]2C[C@@H](O)CN2C(=O)[C@H]([C@@H](C)O)NC1=O,EC90,10 isolates,,pH 5,broth dilution,0.06 µg/mL
N=C(N)c1ccc2nc(-c3ccc(-c4nc5ccc(C(=N)N)cc5[nH]4)[nH]3)[nH]c2c1,MFC,Isolate CA2601 fluconazole-resistant,,,,3.12 µg/mL
C[C@@H](N1CCN(Cc2cn(Cc3ccc(F)cc3F)c3ccc(C#N)cc23)CC1)[C@](O)(Cn1cncn1)c1ccc(F)cc1F,MIC80,ATCC 90028,,,resazurin,0.125 µg/mL
Cc1ccc(-n2cc(C(C)(C)O)nn2)cc1C,inhibition,URM 4820,2048 µg/mL,,broth dilution,0%
C[C@H]1[C@H](O)[C@@H](C)/C=C/C=C/C=C/C=C/C=C/C=C/C=C/[C@H](O[C@@H]2O[C@H](C)[C@@H](O)[C@H](N)[C@@H]2O)C[C@@H]2O[C@](O)(C[C@@H](O)C[C@@H](O)CC[C@H](O)[C@@H](O)C[C@@H](O)CC(=O)O[C@H]1C)C[C@H](O)[C@H]2C(=O)O,MIC100,CCC 126,,,broth dilution / absorbance,1.56 µg/mL
CC(O)Cc1ccc(Cn2cc(CN3CCN([C@H](C)[C@](O)(Cn4cncn4)c4ccc(F)cc4F)CC3)c3cccc(F)c32)cc1,MIC80,ATCC 64548,,,resazurin,2 µg/mL
C=CCc1ccc(OC)c(OC)c1,MIC90,2784,,,turbidity,340 µg/mL
Cc1ccc(-c2c3c(N)c4c(nc3nc3c2c(C)nn3-c2ccccc2)CCCC4)cc1,MIC50,ATCC 10231,,,broth dilution / absorbance,31.2 µg/mL

The first 2 rows once more:

CC(C)(O)c1cn(-c2ccc3ccccc3c2)nn1 ; read-out: inhibition ; strain or isolate: URM 4817 ; dose: 2048 µg/mL ; method: broth dilution ; result: 0%
Nc1[nH]c(=O)ncc1F ; read-out: EC90 ; strain or isolate: 10 isolates ; conditions: pH 4 ; method: broth dilution ; result: >64 µg/mL